Results reported in US8299031B2, “Human semen enhancer of viral infection peptides (SEVI) and their use” (Viro Pharmaceuticals GmbH & Co. KG, priority 2006, dated 2012).

Experiments:
[1] = system: R5 tropic HIV-1 005-pf-103; assay: Infection of PBMC with R5 tropic HIV-1 (luciferase)
[2] = system: X4 tropic HIV-1 NL4-3 Luc; assay: Infection of PBMC with X4 tropic HIV-1 (luciferase); settings: X4 tropic virus, 3 days

Sequence: GIHKQKEKSRLQGGVLVNEILNHMKRATQIPSYKKLIMY (Synthetic fragment of the PAP protein) [PAP(248-286)]
- luciferase activities increased compared to control samples containing no peptide ([1]; 10 μg/ml SEVI, 1 ng p24 antigen, PBMC): 34 fold
- luciferase activities ([1]; 10 μg/ml SEVI, 1 ng p24 antigen, PBMC, 3 days): 28,520 RLU/s
- effect on infection of PBMC ([1]; R5 tropic virus, 3 days): dose dependently promoted infection of PBMC
- effect on infection of PBMC [2]: dose dependently promoted infection of PBMC
